Experimental data reported in US20240050582A1, “CONJUGATES INCLUDING MULTIPLE SACCHARIDIC CHAINS ON A LINEAR PROTEIN AND USES IN MAMMALS FEED” (UNIVERSITEIT GENT, priority 2021, published 2024).

Legend:
[1] = test system: inflammation and tight junction markers; test: Part E: blood cell counts, serum inflammatory markers, mucosal gene expression
fecal microbiota = test: Part E: fecal microbiota (16S rRNA)
[2] = d 5 PI, compared with control pigs, linear, P<0.05

CNCCCCC(CNCCCCC(N)C(=O)NCCCCC(N)C(C)=O)NCC(O)C(O)C(O[C@@H]1OC(CO)[C@H](O)C(O[C@@H]2OC(CO)[C@@H](O)C(O[C@@H]3OC(CO)[C@H](O)C(O[C@H]4OC(CO)[C@H](O)C(O)C4NC(C)=O)C3O[C@@H]3OC(C)[C@@H](O)C(O)C3O)C2NC(C)=O)C1O)C(O)CO (some centres unmarked) [Coligo A6PL]
numbers of white blood cell, neutrophils, and lymphocytes ([1]; d 2 PI): lower
neutrophils ([1]; d 5 PI): lower
mRNA expression of ZO1 and OCLN ([1]; high dose of Coligo, peak of E. coli infection, compared with control pigs): enhanced
CLDN1 expression ([1]; low dose Coligo, d 11 PI, compared with control pigs): relatively high CLDN1 expression
serum C-reactive protein and haptoglobin ([1]; low dose or high dose Coligo groups): reduced
mRNA expression of inflammatory markers (IL1B, IL6, TNF) in ileal mucosa ([1]; pig, in vivo): relative low mRNA expression
relative abundance of Lactobacillaceae (fecal microbiota; Coligo groups vs antibiotics group): greater
relative abundance of Desulfovibrionaceae in fecal samples (fecal microbiota; [2]): greater
relative abundance of Succinivibrionaceae in fecal samples (fecal microbiota; [2]): lower
Bacteroidetes and Proteobacteria in feces (fecal microbiota; d 5 PI, compared with the control diet, regardless of dose, P<0.10): to increase Bacteroidetes and reduce Proteobacteria
relative abundance of Paraprevotellaceae (fecal microbiota; low Coligo vs the other groups, P<0.05): lower
